## Potato spindle tuber viroid, loop 6: variant abundance in plants

Region: loop 6 of PSTVd (intermediate strain), upper and lower strand joined, each 5' to 3', the first 5 letters being the upper strand, closing pairs included. Wild type: UGACCGCGAG. Varied positions (N): UNNNCGNNNG.

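A pool of all variants was put on leaves of three Nicotiana benthamiana plants. Progeny were sequenced from the inoculated region (day 5), the margin of the inoculated leaf (day 10) and systemic leaves (day 12).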

Values are reads per thousand in the sample; higher means more abundant, 0 means not found.
Each value is the mean of three plants.
"Pool" is the share in the plasmid pool used as inoculum, on the same scale.
The inoculated region was read from the minus strand, the other sites from the plus strand.
Sequences that differ at fixed positions probably stem from PCR or sequencing errors, and defective variants can be carried along by functional ones.
For reference, wild type rose from 20.7 per thousand in the pool to 195, 198, 203 (inoculated region), 629, 591, 734 (leaf margin) and 942, 870, 868 (systemic leaves).
With 36,220-57,551 reads a sample, very low values are single reads.

| sequence | pool | inoculated region | leaf margin | systemic leaves |
|---|---|---|---|---|
| UCGACGGACG | 0.131 | 0.0898 | 0.00920 | 0 |
| UCGACGUUGG | 0.261 | 0.0704 | 0.00773 | 0 |
| UAAGCGGGCG | 0.288 | 0.612 | 0.116 | 0.00599 |
| UUUCCGCCCG | 0.235 | 0.149 | 0.0324 | 0 |
| UACACGGCAG | 0.222 | 0.0947 | 0 | 0 |
| UCGACGCUGG | 0.157 | 0.0759 | 0.00920 | 0 |
| UCAACGCCGG | 0.0784 | 0.0654 | 0 | 0 |
| UUCUCGUUGG | 0.340 | 0.0716 | 0 | 0 |
| UGAGCGUCAG | 0.144 | 0.618 | 0.179 | 0.0137 |
| UCCCCGAUCG | 0.288 | 0.0241 | 0.00773 | 0 |
| UGGUCGAUGG | 0.379 | 0.0831 | 0.00920 | 0 |
| UUUGCGGCUG | 0.209 | 0.112 | 0 | 0 |
| UCAGCGGAGG | 0.170 | 0.0539 | 0.00920 | 0 |
| UAAGCGAGGG | 0.379 | 0.0710 | 0.0169 | 0 |
| UCAUCGCCGG | 0.131 | 0.102 | 0 | 0 |
| UCGGCGGCAG | 0.314 | 0.0534 | 0 | 0 |
| UGGUCGCGAG | 0.209 | 0.173 | 0.0309 | 0.0873 |
| UGGUCGAUUG | 0.327 | 0.131 | 0.00920 | 0 |
| UCUUCGUCUG | 0.248 | 0.120 | 0.00920 | 0 |
| UCACCGCUGG | 0.144 | 0.101 | 0.0169 | 0 |
| UCUACGGACG | 0.209 | 0.652 | 0.0655 | 0 |
| UGCCCGAGGG | 0.209 | 0.0719 | 0.0169 | 0 |
| UUUUCGAUUG | 0.235 | 0.0771 | 0 | 0 |
| UUAACGCAAG | 0.0915 | 0.728 | 0.0716 | 0.0329 |
| UUCGCGGAUG | 0.183 | 0.0959 | 0.00920 | 0.00673 |
| GGACCGGUAG | 0.0131 | 0.0297 | 0 | 0 |
| UCGGCGCAAG | 0.131 | 0.0961 | 0.0155 | 0 |
| UACGCGAUCG | 0.170 | 0.0953 | 0 | 0.00684 |
| UAUCCGUUGG | 0.314 | 0.0948 | 0 | 0 |
| UUUGCGGAUG | 0.157 | 0.0599 | 0.0184 | 0 |
| UCGCCGUUAG | 0.431 | 0.0885 | 0 | 0 |
| UCCGCGACUG | 0.340 | 0.0952 | 0 | 0 |
| UCAGCGCUGG | 0.118 | 0.0712 | 0.00920 | 0 |
| UGAACGCUAG | 0.144 | 0.762 | 0.115 | 0.00599 |
| UAACCGUUAG | 0.301 | 0.660 | 0.0491 | 0.0196 |
| UCACCGAUUG | 0.235 | 0.0654 | 0.0155 | 0 |
| UAUACGAUGU | 0.0131 | 0 | 0 | 0 |
| UCGCCGGUCG | 0.288 | 0.0480 | 0 | 0 |
| UGCCCGUACG | 0.275 | 0.0541 | 0.0169 | 0 |

Extract of 3 entries:

* UACGCGAUCG (pool 0.170) -> inoculated region 0.0953; leaf margin 0; systemic leaves 0.00684
* UCGACGGACG (pool 0.131) -> inoculated region 0.0898; leaf margin 0.00920; systemic leaves 0
* UCACCGCUGG (pool 0.144) -> inoculated region 0.101; leaf margin 0.0169; systemic leaves 0

Source: Wu et al. 2024 (doi:10.1371/journal.ppat.1012142), supplementary data.